The values that follow are results of earlier work, collected in patent US7846722B2 (priority 2001, dated 2010).

Chains of the proteins cited; added tags and fusions are not shown. Lines headed by an entry give the natural chain unless they say otherwise; changes in a name come on top.
UniProt P0DPI0: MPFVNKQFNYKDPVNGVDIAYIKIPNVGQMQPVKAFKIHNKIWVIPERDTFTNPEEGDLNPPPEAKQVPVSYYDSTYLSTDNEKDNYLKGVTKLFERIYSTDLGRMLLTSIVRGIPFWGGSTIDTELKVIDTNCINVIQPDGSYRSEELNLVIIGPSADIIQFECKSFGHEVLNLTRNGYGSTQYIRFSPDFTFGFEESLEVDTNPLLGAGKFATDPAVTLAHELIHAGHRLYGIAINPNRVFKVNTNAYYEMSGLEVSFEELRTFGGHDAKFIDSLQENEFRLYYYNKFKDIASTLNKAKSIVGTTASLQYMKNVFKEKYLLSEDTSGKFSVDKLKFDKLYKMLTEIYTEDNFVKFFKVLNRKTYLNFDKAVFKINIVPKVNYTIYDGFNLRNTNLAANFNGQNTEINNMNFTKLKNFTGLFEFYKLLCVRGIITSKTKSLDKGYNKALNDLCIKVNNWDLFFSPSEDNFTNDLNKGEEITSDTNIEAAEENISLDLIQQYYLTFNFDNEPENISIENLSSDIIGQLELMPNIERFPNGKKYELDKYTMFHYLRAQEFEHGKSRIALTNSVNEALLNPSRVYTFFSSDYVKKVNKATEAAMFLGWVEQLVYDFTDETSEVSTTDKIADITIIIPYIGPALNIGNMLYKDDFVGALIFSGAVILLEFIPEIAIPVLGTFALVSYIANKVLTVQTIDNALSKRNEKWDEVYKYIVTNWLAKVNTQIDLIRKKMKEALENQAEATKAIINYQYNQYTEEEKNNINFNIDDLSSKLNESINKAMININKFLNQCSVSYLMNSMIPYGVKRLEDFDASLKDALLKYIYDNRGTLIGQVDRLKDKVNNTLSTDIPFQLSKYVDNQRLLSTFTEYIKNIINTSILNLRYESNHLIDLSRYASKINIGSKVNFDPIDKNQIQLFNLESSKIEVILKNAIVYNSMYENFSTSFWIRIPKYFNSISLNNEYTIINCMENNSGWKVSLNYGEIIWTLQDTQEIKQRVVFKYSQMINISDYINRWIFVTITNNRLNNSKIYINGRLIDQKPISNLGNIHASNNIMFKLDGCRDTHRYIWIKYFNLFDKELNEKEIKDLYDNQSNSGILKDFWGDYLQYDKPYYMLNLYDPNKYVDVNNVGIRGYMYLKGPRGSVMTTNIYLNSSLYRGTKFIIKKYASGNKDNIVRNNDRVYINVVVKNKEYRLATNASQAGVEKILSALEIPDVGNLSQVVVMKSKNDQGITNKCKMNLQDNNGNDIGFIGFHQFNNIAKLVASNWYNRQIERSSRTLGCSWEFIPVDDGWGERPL

The series has as its target BoNT/A (Clostridium botulinum, UniProt P0DPI0). The settings on record: Initial hydrolysis rates relative to peptide [1-17] (residues 187 to 203 of human SNAP-25); peptide concentrations 1.0 mM; cited from earlier work.

Regarding SNKTRIDEAAQRATKML, the “Relative Rate” value is on record as 0.06.
On to SNKTRIDEANQRATK, for which the “Relative Rate” value is listed as 0.03.
